The target in this assay is MazF-mt9 toxin (M. tb), purified protein (M. tuberculosis) (UniProt P0CL62). The assay can be described thus: ITC.

For the substance “MazE-mt9 α4 peptide (Asp63-Gly77, 15 residues)”, the Kd amounted to 87 nM.

For orientation: Kd means the constant that tells how readily two partners part at equilibrium.
